Measurements: patent US10253035B2 (priority 2016, dated 2019)

Test system: Mtb K204
Conditions: compound in combination with KAN

SMILES: CN(c1ccc2ccccc2c1)S(=O)(=O)c1ccc2[nH]c(=O)c(=O)[nH]c2c1 [Compound 46]
- effect on KAN resistance of Mtb K204 (in words): completely cancelling the effect of the Eis upregulation
